US20210380632 (published 2021)

Assay: general procedure: solution-phase peptide synthesis; EDC hydrochloride with HOBt.H2O or HOOBt
Conditions: coupling step

Boc-Gly-Pro-Ser(Bzl)-Ser(Bzl)-Gly-Ala-Pro-Pro-Pro-Ser(Bzl)-NH2
crude purity (method not given): 95.0%
